Anti-infective test results gathered from many reports (values: NIAID ChemDB through PubChem).

Common to all: whole-cell or culture tests; agent: HIV-1; method: cytopathic effect / XTT; endpoint: EC50

ECn is the concentration giving n% inhibition of infection, replication or growth. An empty or dashed field is not shown. Neighbouring rows are from separate reports.

structure	mutations	cell line	conditions	strain or isolate	value
O=C1N(Cc2ccc(CO)cc2)[C@H](COc2ccccc2)[C@H](O)[C@@H](O)[C@@H](COc2ccccc2)N1Cc1ccc(CO)cc1	PR-G48V L90M	MT-4	-	IIIB	0.013 µM
Nc1nc(=O)n([C@@H]2CS[C@H](CO)O2)cc1F	-	MT-2	-	HXB2	0.1 µM
C/C=C/CSc1cc(NC(=S)c2ccsc2C)ccc1Cl	RT-T139I	CEM + CEM-SS	-	Calanolide A-resistant (RT T139I)	0.4 µM
COc1cc2nc(C34CC5CC(CC(C5)C3)C4)oc(=O)c2cc1OC	-	CEM	-	-	>65.8 µM
Nc1nc2c(ncn2[C@H]2CO[C@@H](CO)O2)c(=O)[nH]1	-	MT-2	-	HXB2	0.5 µM
Cc1cn([C@H]2C[C@H](N=[N+]=[N-])[C@@H](CO)O2)c(=O)[nH]c1=O	RT-L100I	CEM + CEM-SS	-	NL4-3	0.003 µM
Nc1nc(NC2CC2)c2ncn([C@H]3C=C[C@@H](CO)C3)c2n1	-	MT-2	-	HXB2	1.1 µM
Nc1nc(N)c2ncn([C@H]3CO[C@@H](CO)O3)c2n1	RT-K65R	MT-2	-	-	120 µM
O=[N+]([O-])c1ccccc1S(=O)(=O)c1ccccc1	-	Macrophage	-	IIIB	0.91 µM
Cc1ccnc2c1NC(=O)c1cccnc1N2C1CC1	RT-D67N K70R T215Y K219Q	CEM + CEM-SS	-	4xAZT(RT-D67N K70R T215Y K219Q)	0.02 µM
Cc1cc(S(=O)(=O)Nc2n[nH]c(Nc3ccccc3)n2)c(SSc2cc(Cl)c(C)cc2S(=O)(=O)Nc2n[nH]c(Nc3ccccc3)n2)cc1Cl	-	CEM	-	RF	6.2 µM
Cc1cn([C@H]2C[C@H](N=[N+]=[N-])[C@@H](CO)O2)c(=O)[nH]c1=O	-	CEM + CEM-SS	-	ED	0.008 µM
Cc1cc(S(=O)(=O)Nc2nnc3ccc4ccccc4n23)c(S)cc1Cl	-	CEM	-	RF	>30.8 µM
Cc1cn([C@H]2C[C@H](N=[N+]=[N-])[C@@H](CO)O2)c(=O)[nH]c1=O	RT-Y181C K101E	CEM + CEM-SS	-	UC10-resistant (RT Y181C K101E)	0.2 µM
Cc1ccnc2c1NC(=O)c1cccnc1N2C1CC1	-	PBMC	clinical isolate	CLADE A	0.06 µM
Cc1cc(S(N)(=O)=O)c(SCc2nc(N)nc(N(C)C)n2)cc1Cl	-	CEM	-	RF	>200 µM
NNC(=O)c1cc(Br)ccc1NC(=O)C12CC3CC(CC(C3)C1)C2	-	CEM	-	-	>15.8 µM
Cc1ccnc2c1NC(=O)c1cccnc1N2C1CC1	-	CEM + CEM-SS	-	IIIB	0.01 µM
Fc1cccc(F)c1[C@H]1SCc2nc3ccccc3n21	RT-Y181C	CEM	-	IIIB	≥6.9 µM
O=S1(c2ccccc2)=NC(=S)Nc2ccccc21	-	PBMC	-	IIIB	0.4 µM
Cc1cn([C@H]2C[C@H](N=[N+]=[N-])[C@@H](CO)O2)c(=O)[nH]c1=O	RT-D67N K70R T215Y K219Q	CEM + CEM-SS	-	NL4-3(RT-4XAZT)	0.8 µM
COC(=O)CNP(=O)(NCC(=O)OC)OC[C@H]1O[C@@H](n2cc(C)c(=O)[nH]c2=O)C[C@@H]1F	-	MT-4	-	-	1.5 µM
Cc1ccc(NC(=O)C23CC4CC(CC(C4)C2)C3)c(C(=O)NN)c1	-	CEM	-	-	>38.9 µM
Cc1cn([C@H]2C[C@H](N=[N+]=[N-])[C@@H](CO)O2)c(=O)[nH]c1=O	-	CEM + CEM-SS	-	ED	0.0003 µM
Nc1nc2c(ncn2[C@H]2CO[C@@H](CO)O2)c(=O)[nH]1	RT-K65R Q151M	MT-2	-	-	41 µM
CC(=O)Oc1cc(S(=O)(=O)Nc2n[nH]c(N)n2)c(S)cc1Cl	-	CEM	-	RF	>200 µM
Cc1cn([C@H]2C[C@H](N=[N+]=[N-])[C@@H](CO)O2)c(=O)[nH]c1=O	-	PBMC	-	CLADE A	0.01 µM
Cc1occc1C(=S)Nc1ccc(Cl)c(/C=N/OC(C)(C)C)c1	RT-K101E	CEM + CEM-SS	-	NL4-3 (RT K101E)	1 µM
Cc1cc(C(F)(F)F)cc(-n2nc(NS(=O)(=O)c3cc(C)c(Cl)cc3S)nc2N)n1	-	CEM	-	RF	>149 µM
Cc1cn([C@H]2C[C@H](N=[N+]=[N-])[C@@H](CO)O2)c(=O)[nH]c1=O	-	CEM	-	-	0.007 µM
CNC(=O)CSP(=O)(NCC(=O)OC)OC[C@@H]1CC[C@H](n2cnc3c(=O)[nH]cnc32)O1	-	MT-4	-	-	10 µM
CCCc1cc(=O)oc2c3c(c4c(c12)OC(C)(C)C=C4)O[C@H](C)[C@@H](C)[C@@H]3O	RT-P236L	CEM + CEM-SS	-	HEPT-resistant (RT P236L)	0.6 µM
O=c1oc(C23CC4CC(CC(C4)C2)C3)nc2ccc(Cl)cc12	-	CEM	-	-	69.2 µM
Cc1ccnc2c1NC(=O)c1cccnc1N2C1CC1	RT-Y181C	CEM + CEM-SS	-	NL4-3	1.3 µM
CCOP(=O)(OC[C@H]1O[C@@H](n2cc(C)c(=O)[nH]c2=O)C[C@@H]1F)SCC(=O)NC	-	MT-4	-	-	0.01 µM
O=S1(c2ccc(Cl)cc2)=NC(=S)Nc2ccc(Cl)cc21	-	MT-2	-	IIIB	0.04 µM
Cc1cc(S(=O)(=O)Nc2n[nH]c(N)n2)c(SCC(=O)O)cc1Cl	-	CEM	-	RF	>200 µM
Cc1cn([C@H]2C[C@H](N=[N+]=[N-])[C@@H](CO)O2)c(=O)[nH]c1=O	RT-K65R K103N	MT-2	-	Site-directed mutant	0.7 µM
Cc1cn([C@@H]2O[C@H](CO[Si](C)(C)C(C)(C)C)C3(OS(=O)(=O)C=C3N)[C@H]2O[Si](C)(C)C(C)(C)C)c(=O)n(C)c1=O	-	CEM + CEM-SS	-	RF	0.04 µM
O=S1(c2ccccc2)=NC(=S)Nc2ccccc21	-	CEM + CEM-SS	-	SK1	0.99 µM
Fc1cccc(F)c1[C@@H]1SCc2nc3ccccc3n21	-	CEM + CEM-SS	-	RF	5.8 µM
Cc1cn([C@H]2C[C@H](N=[N+]=[N-])[C@@H](CO)O2)c(=O)[nH]c1=O	-	PBMC	-	IIIB	0.022 µM
CC1=C(C(=O)Nc2ccc(Cl)c(C(=O)OC(C)C)c2)SCCO1	RT-Y181C	CEM + CEM-SS	-	UC38-R(RT-Y181C	1.2 µM
Fc1cccc(F)c1C1SCc2nc3ccccc3n21	-	CEM + CEM-SS	-	McK	0.66 µM
O=C1Nc2ccccc2S(=O)(=O)N1	-	CEM + CEM-SS	-	IIIB	>1260 µM
Cc1cn([C@H]2C[C@H](N=[N+]=[N-])[C@@H](CO)O2)c(=O)[nH]c1=O	RT-K103E	CEM + CEM-SS	-	NL4-3	0.002 µM
c1ccc2c(c1)sc1nccn12	-	Macrophage	-	IIIB	1.8 µM
C[C@H](Cn1cnc2c(N)ncnc21)OCP(=O)(O)O	RT-K65R H221Y	MT-2	-	Site-directed mutant	12.96 µM
Cc1c(Sc2ccccc2)n(COCCO)c(=O)[nH]c1=O	RT-A98G V108I	CEM + CEM-SS	-	IIIB	>325 µM
Nc1ccn([C@H]2CC[C@@H](CO)O2)c(=O)n1	-	MT-4	-	-	0.1 µM
CCc1c(Sc2ccccn2)n(COCc2ccccc2)c(=O)[nH]c1=O	-	AA5	-	IIIB	0.04 µM
Cc1cc2nc3nc(N)nc(NS(=O)(=O)c4cc(C)c(Cl)cc4S)n3c2cc1C	-	CEM	-	RF	58.5 µM
Nc1nc(=O)n([C@@H]2CS[C@H](CO)O2)cc1F	RT-K65R	MT-2	-	Site-directed mutant	8.5 µM
CCCc1cc(=O)oc2c3c(c4c(c12)OC(C)(C)C=C4)O[C@@H](C)[C@H](C)[C@@H]3O	-	MT-2	-	IIIB	0.8 µM
CC(=O)Oc1cc(S(=O)(=O)Nc2n[nH]c(Nc3ccc(C)cc3)n2)c(S)cc1Cl	-	CEM	-	RF	139 µM

The last 5 rows once more:

structure	mutations	cell line	conditions	strain or isolate	value
CCc1c(Sc2ccccn2)n(COCc2ccccc2)c(=O)[nH]c1=O	-	AA5	-	IIIB	0.04 µM
Cc1cc2nc3nc(N)nc(NS(=O)(=O)c4cc(C)c(Cl)cc4S)n3c2cc1C	-	CEM	-	RF	58.5 µM
Nc1nc(=O)n([C@@H]2CS[C@H](CO)O2)cc1F	RT-K65R	MT-2	-	Site-directed mutant	8.5 µM
CCCc1cc(=O)oc2c3c(c4c(c12)OC(C)(C)C=C4)O[C@@H](C)[C@H](C)[C@@H]3O	-	MT-2	-	IIIB	0.8 µM
CC(=O)Oc1cc(S(=O)(=O)Nc2n[nH]c(Nc3ccc(C)cc3)n2)c(S)cc1Cl	-	CEM	-	RF	139 µM